Measured values from several laboratories, pooled; numbers as filed in NIAID ChemDB.

All rows: whole-cell or culture tests; species: Mycobacterium tuberculosis

MIC bound: limit read from a one-dose screen. MIC50, MIC90 and the like: level of inhibition, or share of isolates inhibited. Percent inhibition refers to the dose given; in toxicity tests it is the harm to the cells. Blank or dashed fields: not listed here. ECn is the concentration giving n% inhibition of infection, replication or growth. Neighbouring rows are from separate reports.

smiles | changes | method | measure | setting | cell line | dose | strain | value
O=C(NNC(=O)c1ccncc1)Nc1ccc(F)cc1Br |  | broth dilution | MIC100 | 14 d |  |  | My 331/88 | 16 µM
O=C(CNC(=O)NCc1ccco1)NNC(=O)Nc1ccc(Cl)c([N+](=O)[O-])c1 |  | BACTEC | inhibition |  |  | 12.5 µg/mL | H37Rv | 61%
COc1ccccc1/C=C/C(=O)NN |  |  | MIC |  |  |  | BCG | 20 µg/mL
COc1cc(OC)c(C/C=C/c2ccccc2)cc1O |  | BACTEC | inhibition |  |  | 12.5 µg/mL | H37Rv | -3%
O=C(Nc1ccc(F)cc1)N(Cc1cc2ccc(F)cc2[nH]c1=O)C1CCCCC1 |  | broth dilution | MIC | 14 d |  |  | H37Rv (ATCC 27294) | >64 µg/mL
O=C(NNC(=O)c1ccncc1)Nc1ccc(F)c(C(F)(F)F)c1 |  | broth dilution | MIC100 | 14 d |  |  | My 331/88 | 32 µM
CC1=NN(c2ccccc2)C(=O)C1N=Nc1ccc(S(N)(=O)=O)cc1 |  | BACTEC | inhibition |  |  | 12.5 µg/mL | H37Rv | 25%
O=C(NNC(=O)c1ccncc1)Nc1ccc(Br)c(F)c1 |  | broth dilution | MIC100 | 14 d |  |  | My 331/88 | 62.5 µM
CC(C)/C=N/NC(=O)c1cnc(C2C3CC4CC(C3)CC2C4)[nH]1 |  |  | MIC |  |  |  | H37Rv | >6.25 µg/mL
CC(=O)C(N=Nc1cccc2c1C(=O)c1cccc(Cl)c1C2=O)C(=O)Nc1ccccc1Cl |  | BACTEC | MIC bound |  |  |  | H37Rv | >12.5 µg/mL
COc1ccc(C/C=N/O)cc1 |  |  | MIC |  |  |  | BCG | >100 µg/mL
O=C1c2cc(Br)ccc2OP(=O)(c2ccccc2)N1c1ccc(C(F)(F)F)cc1 |  |  | MIC | 21 d |  |  | Praha 131 | 1 µM
CCC(C)C(=O)c1cn(-c2ccccc2)nn1 |  |  | inhibition |  |  | 12.5 µg/mL | H37Rv | 78%
C[C@H]1COc2c(N3CCN(C)CC3)c(F)cc3c(=O)c(C(=O)O)cn1c23 |  |  | MIC |  |  |  | Erdman | 0.25 µg/mL
CCN=c1cc2n(-c3ccc(C(F)(F)F)cc3)c3ccccc3nc-2cc1Nc1ccc(C(F)(F)F)cc1 |  |  | MIC | multidrug-resistant |  |  | 2227 | 0.12 µg/mL
O=Cc1coc2ccc(Br)cc2c1=O |  |  | MIC |  |  |  | My 331/88 | 125 µM
O=C(c1ccc(Br)cc1)c1cn(-c2ccccc2)nn1 |  |  | MIC |  |  |  | H37Rv | >12.5 µg/mL
NNC(=O)c1ccncc1 |  |  | MIC |  |  |  | PR410 | 0.63 µg/mL
CCOC(=O)c1c(NC(=O)c2c(F)c(F)c(F)c(F)c2F)sc2c1CCNC2=O | rpoB S522L mutant | turbidity | EC50 |  |  |  | H37Rv | 0.35 µM
O=C(Nc1ccc(Br)cc1)c1cc(Cl)ccc1OP(=O)(Oc1ccccc1)c1ccccc1 |  |  | MIC | 14 d |  |  | My 331/88 | 4 µM
CCCCCCCCCCCCCCCCCCCCCCCCCC(=O)OCCc1ccc(OC)cc1 |  |  | MIC |  |  |  | H37Rv (ATCC 27294) | >128 µg/mL
NC(=O)c1ccc[n+](C2OC(COP(=O)([O-])OP(=O)([O-])OCC3OC(n4cnc5c(=O)[nH]c(N)nc54)C(O)C3O)C(O)C2O)c1.[Li+] |  | BACTEC | MIC bound |  |  |  | H37Rv | >12.5 µg/mL
CC1CN(c2c(F)cc3c(=O)c(C(=O)O)cn(C4CC4)c3c2F)CCN1 |  |  | MIC |  |  |  | CSU23 | ≤0.125 µg/mL
CC1COc2c(N3CCN(C)CC3)c(F)cc3c(=O)c(C(=O)O)cn1c23 |  |  | MIC |  |  |  | 3183-5 | 0.5 µg/mL
O=C(Nc1ccc(Cl)c(Cl)c1)c1cc(Cl)ccc1OP(=O)(Oc1ccccc1)Oc1ccccc1 |  |  | MIC | 7 d |  |  | My 331/88 | 2 µM
Fc1cc(Br)ccc1Nc1nnc(-c2ccncc2)o1 |  | broth dilution | MIC100 | 14 d |  |  | My 331/88 | >125 µM
CCN(CCO)CCNc1ccc(C)c2sc3cc(OC)ccc3c(=O)c12 |  | BACTEC | MIC |  |  |  | H37Rv | ≥12.5 µg/mL
COc1ccc2cc(CN(C(=O)Nc3ccc(F)cc3)C3CCCCCC3)c(=O)[nH]c2c1 |  | broth dilution | MIC | 7 d |  |  | H37Rv (ATCC 27294) | >64 µg/mL
O=C(Nc1ccc(C(F)(F)F)cc1)c1cc(Cl)ccc1OP(=O)(c1ccccc1)c1ccccc1 |  |  | MIC | 14 d |  |  | My 331/88 | 2 µM
CCCCCCCCCCCCCCCCCCCCCC(=O)OCCc1ccc(OC)cc1 |  |  | MIC |  |  |  | H37Rv (ATCC 27294) | >128 µg/mL
O=C(c1cn(-c2ccccc2)nn1)c1ccco1 |  |  | inhibition |  |  | 12.5 µg/mL | H37Rv | 42%
CC1=C2C3B(OCCOC3C=C1)O[C@@H]2CN |  | resazurin / fluorescence | MIC |  |  |  | H37Rv | >600 µM
CC(=O)c1cn(-c2ccccc2)nn1 |  |  | MIC |  |  |  | H37Rv | >12.5 µg/mL
Oc1c(Cl)c2nc3ccccc3nc2c2ccccc12 |  | BACTEC | MIC |  |  |  | H37Rv | 0.8 µg/mL
CCN1CCc2c(sc(NC(=O)c3c(F)c(F)c(F)c(F)c3F)c2C#N)C1 |  | turbidity | MIC |  |  |  | ATCC 35822 | 20 µM
CCCCCCCCCCCCCCCCCC(=O)OCCc1ccc(OC)cc1 |  |  | MIC |  |  |  | H37Rv (ATCC 27294) | >128 µg/mL
N#Cc1c(NC(=O)c2c(F)c(F)c(F)c(F)c2F)sc2c1CCOC2 | rpoB S522L mutant | turbidity | EC50 |  |  |  | H37Rv | 3.8 µM
NNC(=O)c1ccncc1 |  |  | MIC |  |  |  | CSU23 | ≤0.125 µg/mL
O=C(c1cn(-c2cccc3ccccc23)nn1)c1cccs1 |  |  | inhibition |  |  | 12.5 µg/mL | H37Rv | 0%
COc1cc2c(c(OC)c1OC)CCC/C2=N\NC(N)=S |  | resazurin | MIC bound |  |  |  | H37Rv | >6.25 µg/mL
CCN1CCc2c(sc(NC(=O)c3c(F)c(F)c(F)c(F)c3F)c2C(N)=O)C1 |  | turbidity | EC50 |  |  |  | ATCC 35822 INH-R2 isoniazid-resistant | 3.7 µM
O=C1CC(SC(=S)N2CCCCC2)C(=O)N1c1ccccc1 |  |  | MIC |  |  |  | CS-R | 3.2 µg/mL
CCN1CCc2c(sc(NC(=O)c3c(F)c(F)c(F)c(F)c3F)c2C(=O)NC)C1 | rpoB S522L mutant | turbidity | EC90 |  |  |  | H37Rv | 4.4 µM
CC/C=C\C/C=C\C/C=C\CCCCCCCC(=O)NNC(=O)c1ccncc1 |  | resazurin | MIC100 |  |  |  | ATCC 35822 INHr | 12.5 µg/mL
O=C(Nc1ccccc1)c1ccccc1OP(=O)(c1ccccc1)c1ccccc1 |  |  | MIC | 7 d |  |  | My 331/88 | 62.5 µM
O=C(c1cn[nH]n1)c1ccc(Br)cc1Br |  |  | inhibition |  |  | 12.5 µg/mL | H37Rv | 0%
CCNC(=O)c1c(NC(=O)c2c(F)c(F)c(F)c(F)c2F)sc2c1CCN(CC)C2 |  | low oxygen | EC90 |  |  |  |  | 15 µM
CCCCCCCCCCCCCCCCCCC(=O)OCCc1ccc(O)cc1 |  |  | MIC |  |  |  | H37Rv (ATCC 27294) | >128 µg/mL
O=C1CSc2nc3c(Cl)cc(Cl)cc3c(=O)n21 |  | resazurin | inhibition |  |  | 6.25 µg/mL | H37Rv | -3%
CCOC(=O)c1c(NC(=O)c2c(F)c(F)c(F)c(F)c2F)sc2c1CCOC2 |  | turbidity | EC50 |  |  |  | ATCC35838 | 0.085 µM
O=c1oc2cccc(O)c2c(O)c1Cc1ccccc1 |  | BACTEC | MIC bound |  |  |  | H37Rv | >12.5 µg/mL
NNC(=O)c1ccncc1 |  | resazurin | MIC100 |  |  |  | 1896-HF INHr | 2 µg/mL
CC1=NN(C(=O)c2ccncc2)C(=O)C1N=Nc1ccc([N+](=O)[O-])cc1Cl |  | BACTEC | inhibition |  |  | 12.8 µg/mL | H37Rv | 39%
CC(NC(=O)c1ccccc1C(F)(F)F)c1nnc(SCc2ccc(F)cc2)n1Cc1cccnc1 |  | broth dilution | MIC | 14 d |  |  | H37Rv (ATCC 27294) | >64 µg/mL
CC(C)/C=N/NC(=O)c1nc(C2C3CC4CC(C3)CC2C4)[nH]c1C1C2CC3CC(C2)CC1C3 |  |  | inhibition |  |  | 6.25 µg/mL | H37Rv | 0%
O=C(O)COc1ccc(-c2cccc(Cl)c2)c(CN2CCN(c3ccccn3)CC2)c1 |  | broth dilution | MIC |  |  |  | H37Rv (ATCC 27294) | 32 µg/mL
CCCCCCCCCCCCCCCCCCCC(=O)OCCc1ccc(O)cc1 |  |  | MIC |  |  |  | H37Rv (ATCC 27294) | >128 µg/mL
O=C1c2cc(Cl)ccc2OP(=O)(c2ccccc2)N1c1ccc(C(F)(F)F)cc1 |  |  | MIC | 14 d |  |  | Praha 131 | 1 µM
NNC(=O)/C=C/c1ccccc1[N+](=O)[O-] |  |  | MIC |  |  |  | BCG | 50 µg/mL
CCOC(=O)c1cnc(C23CC4CC(CC(C4)C2)C3)[nH]1 |  |  | inhibition |  |  | 6.25 µg/mL | H37Rv | 0%
Nc1sc(-c2ccccc2)cc1C(=O)O |  | resazurin | MIC |  |  |  | H37Rv | 50 µg/mL
O=C(NNC(=O)c1ccncc1)Nc1ccc(Br)cc1F |  | broth dilution | MIC100 | 14 d |  |  | My 331/88 | 32 µM
CCCCCCCNC(=O)CCc1cnc(C2C3CC4CC(C3)CC2C4)[nH]1 |  |  | inhibition |  |  | 6.25 µg/mL | H37Rv | 8%
Oc1ccc2c(c1)OC[C@]1(O)Cc3cc(O)c(O)cc3[C@H]21 |  | BACTEC | MIC bound |  |  |  | H37Rv | >128 µg/mL
CC(c1nnc(SCCOc2ccc(F)cc2)n1Cc1ccc(F)cc1)N(C)C(=O)c1ccccc1C(F)(F)F |  | broth dilution | MIC | 14 d |  |  | H37Rv (ATCC 27294) | >64 µg/mL
CC(=O)OCC1OC(n2c(C)cc(-c3ccco3)c(C#N)c2=S)C(OC(C)=O)C(OC(C)=O)C1OC(C)=O |  | BACTEC | inhibition |  |  | 12.5 µg/mL | H37Rv | 0%
Cc1ccc2occ(C=O)c(=O)c2c1 |  |  | MIC |  |  |  | My 331/88 | 1000 µM
O=C(NNC(=O)c1ccncc1)Nc1ccc(Br)cc1Br |  | broth dilution | MIC100 | 21 d |  |  | My 331/88 | 8 µM
CNC1=CC(=O)c2c(c3cc(OC(C)=O)ccc3n2C)C1=O |  | resazurin | inhibition |  |  | 6.25 µg/mL | H37Rv | 49%
COc1c(N2CCNC(C)C2)c(F)cc2c(=O)c(C(=O)O)cn(C3CC3)c12 |  |  | MIC |  |  |  | 19 strains | 8 µg/mL
CCCCCCCCCCCCC(C(=O)O)c1ccccc1 |  |  | MIC |  |  |  | BCG | 100 µg/mL
O=C(Nc1ccc(Br)cc1)c1cc(Cl)ccc1OP(=O)(OCc1ccccc1)OCc1ccccc1 |  |  | MIC | 7 d |  |  | My 331/88 | 8 µM
Cc1ccccc1C(C#N)C(=O)C(=O)Nc1nc([N+](=O)[O-])cs1 |  | resazurin | inhibition |  |  | 6.25 µg/mL | H37Rv | -6%
CCOC(=O)c1cn[nH]n1 |  |  | MIC |  |  |  | H37Rv | >12.5 µg/mL
COc1ccc2cc(CN(C(=O)Nc3ccc(F)cc3)C3CCCCC3)c(=O)[nH]c2c1 |  | broth dilution | MIC | 7 d |  |  | H37Rv (ATCC 27294) | >64 µg/mL
CCCCCCCCc1ccc(NC(=O)NNC(=O)c2ccncc2)cc1 |  | broth dilution | MIC100 | 21 d |  |  | My 331/88 | 2 µM
CCCCCCCCCCCCCCCCC(=O)NNC(=O)c1ccncc1 |  | resazurin | MIC100 |  |  |  | ATCC 27294 H37Rv | 0.03 µg/mL
O=C(O)CCc1cnc(C2C3CC4CC(C3)CC2C4)[nH]1 |  |  | inhibition |  |  | 6.25 µg/mL | H37Rv | 2%
O=[N+]([O-])c1cnc(-c2ccc(F)cc2)n1CCO |  | resazurin | MIC bound |  |  |  | H37Rv | >6.25 µg/mL
Fc1cc(Nc2nnc(-c3ccncc3)o2)ccc1Br |  | broth dilution | MIC100 | 14 d |  |  | My 331/88 | >125 µM
CCCCCCCCCCCCCCCCCCCCCCC(=O)OCCc1ccc(OC)cc1 |  |  | MIC |  |  |  | H37Rv (ATCC 27294) | >128 µg/mL
C/C(=N\NC(=O)c1ccncc1)c1ccc(F)cc1 |  |  | MIC |  | VERO |  | H37Rv | 0.1285 µg/mL
CC(NC(=O)c1ccccc1C(F)(F)F)c1nnc(SCCOc2ccc(F)cc2)n1Cc1ccc(F)cc1 |  | broth dilution | MIC | 14 d |  |  | H37Rv (ATCC 27294) | >64 µg/mL
COc1nc2ncc(C(O)C(O)CO)nc2c(=O)n1C |  | resazurin | MIC bound |  |  |  | H37Rv | >6.25 µg/mL
CC1CN(c2c(F)cc3c(=O)c(C(=O)O)cn(C4CC4)c3c2F)CC(C)N1 |  |  | MIC |  |  |  | CSU27 | ≤0.125 µg/mL
C=CCOCCN1CCN(CCCN2c3ccccc3Sc3ccc(C(F)(F)F)cc32)CC1.Cl |  | BACTEC | MIC |  |  |  | H37Rv | 12.5 µg/mL
COc1ccc2cc(CN(C(=O)Nc3ccc(F)cc3F)C3CCCCCC3)c(=O)[nH]c2c1 |  | broth dilution | MIC | 14 d |  |  | H37Rv (ATCC 27294) | >64 µg/mL

Repeating the first 5 entries:

O=C(NNC(=O)c1ccncc1)Nc1ccc(F)cc1Br ; method: broth dilution ; measure: MIC100 ; setting: 14 d ; strain: My 331/88 ; value: 16 µM
O=C(CNC(=O)NCc1ccco1)NNC(=O)Nc1ccc(Cl)c([N+](=O)[O-])c1 ; method: BACTEC ; measure: inhibition ; dose: 12.5 µg/mL ; strain: H37Rv ; value: 61%
COc1ccccc1/C=C/C(=O)NN ; measure: MIC ; strain: BCG ; value: 20 µg/mL
COc1cc(OC)c(C/C=C/c2ccccc2)cc1O ; method: BACTEC ; measure: inhibition ; dose: 12.5 µg/mL ; strain: H37Rv ; value: -3%
O=C(Nc1ccc(F)cc1)N(Cc1cc2ccc(F)cc2[nH]c1=O)C1CCCCC1 ; method: broth dilution ; measure: MIC ; setting: 14 d ; strain: H37Rv (ATCC 27294) ; value: >64 µg/mL